Chains of the proteins cited; added tags and fusions are not shown. Lines headed by an entry give the natural chain unless they say otherwise; changes in a name come on top.
UniProt Q9H3N8: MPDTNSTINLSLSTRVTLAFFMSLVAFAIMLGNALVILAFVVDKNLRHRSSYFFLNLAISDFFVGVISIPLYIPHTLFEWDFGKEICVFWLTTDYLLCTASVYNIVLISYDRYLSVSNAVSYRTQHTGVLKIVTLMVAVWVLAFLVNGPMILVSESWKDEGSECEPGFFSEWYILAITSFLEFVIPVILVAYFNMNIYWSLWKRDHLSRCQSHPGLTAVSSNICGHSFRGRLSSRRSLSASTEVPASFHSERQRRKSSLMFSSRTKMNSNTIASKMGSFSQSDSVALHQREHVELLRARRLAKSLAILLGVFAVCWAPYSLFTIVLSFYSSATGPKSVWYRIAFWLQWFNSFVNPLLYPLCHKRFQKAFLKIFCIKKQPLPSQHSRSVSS

According to patent publication US8530486B2, “Quinazolines and related heterocyclic compounds, and their therapeutic use” (Vereniging Voor Christelijk Hoger Onderwijs, …, priority 2008, dated 2013):

Target: T1, human H4 receptor (Homo sapiens, UniProt Q9H3N8)
T1 construct: expressed in transfected cells; host or cells: HEK 293T cells, transient transfection with polyethyleneimine
Assay: [3H]Histamine binding assay (radioligand displacement at the human H4 receptor)

CN1CCN(c2nc(NCCS(=O)(=O)N3CCOCC3)c3cc(Cl)ccc3n2)CC1 [Example 7, 6-chloro-2-(4-methylpiperazin-1-yl)-N-(2-(morpholinosulfonyl)ethyl)quinazolin-4-amine]
Ki: < 1 µM
